Laboratory results reported in article PMC7038234, “Screening of Natural Extracts for Inhibitors against Japanese Encephalitis Virus Infection” (Antimicrobial Agents and Chemotherapy, 2020).

test system: JEV strain AT31; assay: not given; details: Vero cells, JEV

Row | Compound | SI (CC50/IC50)
1 | COc1cc2c(c(OC)c1OC)-c1c(cc3c(c1OC)OCO3)CC(C)C(C)C2 (stereo not drawn) [schizandrin B] | > 31.89
2 | O[C@H]1[C@H]2c3cc4c(cc3CN3CCC(=C[C@@H]1O)[C@H]23)OCO4 [lycorine] | > 293.9
3 | Oc1cc(O)c2c(c1)OC(c1ccc(O)c(O)c1)C(OC1(c3ccc(O)c(O)c3)Oc3cc(O)cc(O)c3C(O)C1O)C2 (stereo not drawn) [procyanidin] | > 18.43
4 | COC1=CC23CCCN2CCc2cc4c(cc2C3C1O)OCO4 (stereo not drawn) [cephalotaxlen] | > 74.91
5 | COc1cc2c(c(OC)c1OC)-c1c(cc(OC)c(OC)c1OC)C[C@H](C)[C@H](C)C2 [schizandrin A] | 15.07

test system: JEV strain AT31; assay: microbe, parasite or virus in culture; details: Japanese encephalitis virus, 24 h, Primary screening of 1034 compounds in the natural extracts library

Row | Compound | inhibition at 50 µM [%]
6 | COc1cc2c(c(OC)c1OC)-c1c(cc3c(c1OC)OCO3)CC(C)C(C)C2 (stereo not drawn) [schizandrin B] | 92.4
7 | COc1cc2c(c(OC)c1OC)-c1c(cc(OC)c(OC)c1OC)C[C@H](C)[C@H](C)C2 [schizandrin A] | 98.6
8 | O=c1c(O[C@@H]2O[C@H](CO)[C@H](O)[C@H](O)[C@H]2O)c(-c2ccc(O)c(O)c2)oc2cc(O)cc(O)c12 [Hyperoside] | 13.9
9 | C[C@@H]1CC[C@@]2(OC1)O[C@H]1C[C@H]3[C@@H]4CC[C@H]5C[C@@H](O)CC[C@]5(C)[C@H]4CC[C@]3(C)[C@H]1[C@@H]2C [Tigogenin] | -0.724
10 | CC1=C[C@]23C(=O)[C@@H](C=C(CO)[C@@H](O)[C@]2(O)[C@H]1O)[C@H]1[C@@H](C[C@H]3C)C1(C)C [Ingenol] | -1.74
11 | CC(C)[C@@H](C)/C=C/[C@@H](C)[C@H]1CC[C@H]2C3=C[C@@H](O)[C@@]4(O)C[C@@H](O)CC[C@]4(C)[C@H]3CC[C@]12C [cerevisterol] | -58.2
12 | CC1(C)[C@@H](O[C@H]2O[C@H](C(=O)O)[C@@H](O)[C@H](O)[C@H]2O[C@@H]2O[C@H](C(=O)O)[C@@H](O)[C@H](O)[C@H]2O)CC[C@]2(C)[C@H]3C(=O)C=C4[C@@H]5C[C@@](C)(C(=O)O)CC[C@]5(C)CC[C@@]4(C)[C@]3(C)CC[C@@H]12 [Glycyrrhizic acid] | -2.91
13 | CC[C@H]1CN2CC[C@@]3(C(=O)Nc4ccccc43)[C@@H]2C[C@@H]1/C(=C\OC)C(=O)OC [Isorhynchophylline] | 15.1
14 | O=C(CCc1ccc(O)cc1)c1c(O)cc(O)cc1O[C@@H]1O[C@H](CO)[C@@H](O)[C@H](O)[C@H]1O [Phlorizin] | 8.24
15 | C=C[C@H]1C[N@@]2CC[C@H]1C[C@H]2[C@H](O)c1ccnc2ccc(OC)cc12 [Quinine] | 20.8
16 | COc1cc(O)c(CC=C(C)C)c(O)c1C(=O)/C=C/c1ccc(O)cc1 [Xanthohumol] | 96.4
17 | Oc1ccc(CC2NCCc3cc(O)c(O)cc32)cc1 (stereo not drawn) [Higenamine] | 19.2
18 | COc1ccc(C=O)cc1O [Isovanillin] | 19.6
19 | C=C1C(=O)O[C@@H]2C[C@@]3(C)CCCC(=C)[C@@H]3C[C@H]12 [isoalantolactone] | 98.6
20 | C=C1CCC[C@]2(C)C=C3OC(=O)C(C)=C3C[C@@H]12 [AtractylenolideI] | 16.5
21 | CC(=O)O[C@H]1CC(=O)OC(C)(C)[C@@H]2CC(=O)[C@]3(C)[C@H](CC[C@@]4(C)[C@H](c5ccoc5)OC(=O)[C@H]5O[C@]543)[C@@]12C [Nomilin] | 53.6
22 | CCCCCCCCCCCCCC(=O)O [Myristic acid] | -11
23 | O=C(/C=C/c1ccc(O)cc1)CC(=O)/C=C/c1ccc(O)cc1 [Bisdemethoxycurcumin] | 4.74
24 | O=c1cc(-c2ccc(O)c(O)c2)oc2c([C@@H]3O[C@H](CO)[C@@H](O)[C@H](O)[C@H]3O)c(O)cc(O)c12 [Orientin] | 1.09
25 | COc1cc(O)c2c(c1)oc(=O)c1c3cc(O)c(O)cc3oc21 [Wedelolactone] | -42

Row | Compound | inhibition at 50 µM [%]
26 | Oc1ccc(/C=C/c2cc(O)cc(O)c2)cc1 [Resveratrol] | 25.3
27 | CC[C@H](CC[C@@H](C)[C@H]1CC[C@H]2[C@@H]3CC=C4C[C@@H](O)CC[C@]4(C)[C@H]3CC[C@]12C)C(C)C [β-Sitosterol] | 13
28 | O=C1C[C@@H](c2ccc(O)c(O)c2)Oc2cc(O)cc(O)c21 [Eriodictyol] | -1.85
29 | COc1ccc(/C=C/c2cc(O)cc(O)c2)cc1O [Rhapontigenin] | 5.65
30 | COc1ccc(C(=O)O)cc1O [Isovanillic Acid] | 15.1
31 | OC[C@H]1NC[C@H](O)[C@@H](O)[C@@H]1O [1-Deoxynojirimycin] | 95.2
32 | OCc1ccc(O[C@@H]2O[C@H](CO)[C@@H](O)[C@H](O)[C@H]2O)cc1 [Gastrodin] | 81.5
33 | COc1ccc2cc3[n+](cc2c1OC)CCc1cc2c(cc1-3)OCO2 [Berberine Hydrochloride] | 29.1
34 | Oc1ccc(O)cc1 [Hydroquinone] | -13.9
35 | OC[C@H]1O[C@H](O[C@H]2O[C@H](CO)[C@@H](O)[C@H](O)[C@H]2O)[C@H](O)[C@@H](O)[C@@H]1O [Trehalose] | 1.7
36 | C=CCc1ccc(OC)c(OC)c1 [Methyl eugenol] | -16
37 | COc1ccc2c(c1)[nH]c1c(C)nccc12 [Harmine. hydrochloride] | 22.2
38 | COc1cc2c(cc1OC)-c1cc3ccc(OC)c(OC)c3c[n+]1CC2 [Palmatine chloride] | -9.32
39 | COc1ccc(C=O)c(O)c1 [2-Hydroxy-4-methoxybenzaldehyde] | -3.84
40 | N#C[C@H](O[C@@H]1O[C@H](CO[C@@H]2O[C@H](CO)[C@@H](O)[C@H](O)[C@H]2O)[C@@H](O)[C@H](O)[C@H]1O)c1ccccc1 [Amygdalin] | 12.3
41 | CC(=O)c1c(C)c([N+](=O)[O-])c(C(C)(C)C)c([N+](=O)[O-])c1C [Musk ketone] | 41.4
42 | OCCc1ccc(O)c(O)c1 [Hydroxytyrosol] | 18
43 | CC(=O)O[C@H](CC=C(C)C)C1=CC(=O)c2c(O)ccc(O)c2C1=O [acetylshikonin] | -80.9
44 | C[C@@H]1O[C@@H](O[C@H]2[C@H](O[C@H]3CC[C@@]4(C)[C@@H](CC[C@]5(C)[C@@H]4CC=C4[C@@H]6CC(C)(C)CC[C@]6(C(=O)O)CC[C@]45C)[C@]3(C)CO)OC[C@H](O)[C@@H]2O)[C@H](O)[C@H](O)[C@H]1O [α-hederin] | 90.1
45 | CC1(C)CC[C@]2(C(=O)O)CC[C@]3(C)C(=CC[C@@H]4[C@@]5(C)CC[C@H](O)[C@@](C)(CO)[C@@H]5CC[C@]43C)[C@@H]2C1 [Hederagenin] | -34.9

Row | Compound | inhibition at 50 µM [%]
46 | CC1(C)C=Cc2c(ccc3c2OC[C@@H](c2ccc(O)cc2O)C3)O1 [Glabridin] | -2.9
47 | Oc1cc2c(cc1O)[C@@H]1c3ccc(O)c(O)c3OC[C@]1(O)C2 [Hematoxylin] | -6.88
48 | COc1cc2oc(=O)ccc2c(OC)c1O [Fraxinol] | 7.4
49 | Oc1ccc2c(c1)OC[C@H]1c3cc4c(cc3O[C@@H]21)OCO4 [Maackiain] | 10.5
50 | CC1OC(OC2C(=O)c3c(O)cc(O)cc3OC2c2ccc(O)cc2)C(O)C(O)C1O (stereo not drawn) [Engeletin] | 38.1
51 | O=C1O[C@H]2[C@@H]3OC(=O)c4cc(O)c(O)c(O)c4-c4c(O)c(O)c5oc(=O)c6c(c(O)c(O)c7oc(=O)c4c5c76)-c4c(cc(O)c(O)c4O)C(=O)OC[C@H]3OC(O)[C@@H]2OC(=O)c2cc(O)c(O)c(O)c2-c2c1cc(O)c(O)c2O (mixture of isomers) [Punicalagin] | 42.6
52 | O=c1cc(-c2ccc(O)cc2)oc2cc(O)c([C@@H]3O[C@H](CO)[C@@H](O)[C@H](O)[C@H]3O)c(O)c12 [Isovitexin] | -8.28
53 | C=CCc1ccc(O)c(-c2ccc(O)c(CC=C)c2)c1 [honokiol] | -0.897
54 | O=c1cc(-c2ccccc2)oc2cc(O)c(O)c(O)c12 [Baicalein] | -44.4
55 | CC(=O)O[C@H]1[C@H](OCCc2ccc(O)c(O)c2)O[C@H](CO[C@@H]2O[C@H](CO)[C@@H](O)[C@H](O)[C@H]2O)[C@@H](OC(=O)/C=C/c2ccc(O)c(O)c2)[C@@H]1OC[C@@H]1O[C@@H](C)[C@H](O)[C@@H](O)[C@H]1O [Tubuloside A] | 10.5
56 | COc1cc2c(c(O)c1OC)-c1c(cc(OC)c(OC)c1OC)C[C@@H](C)[C@@H](C)C2 [Schisanhenol] | 66.6
57 | CC(C)=CC/C=C(\C)[C@H]1CC[C@]2(C)[C@@H]1[C@H](O)C[C@@H]1[C@@]3(C)CC[C@H](O)C(C)(C)[C@@H]3[C@@H](O[C@@H]3O[C@H](CO)[C@@H](O)[C@H](O)[C@H]3O)C[C@]12C [Ginsenoside Rh4] | 9.78
58 | c1cc2c(cc1O[C@H]1OC[C@H]3[C@@H]1CO[C@@H]3c1ccc3c(c1)OCO3)OCO2 [Sesamolin] | -1.68
59 | O=C(CO)[C@@H](O)[C@H](O)[C@H](O)CO [Fructose] | -4.45
60 | COc1cc(C(=O)O[C@H]2[C@@H]3C=CO[C@@H](O[C@@H]4O[C@H](CO)[C@@H](O)[C@H](O)[C@H]4O)[C@@H]3[C@@]3(CO)O[C@@H]23)ccc1O [Picroside II] | -0.395
61 | C[C@]12CC[C@H](O)C[C@H]1CC[C@@H]1[C@@H]2CC[C@]2(C)[C@@H](c3ccc(=O)oc3)C[C@H]3O[C@]132 [Resibufogenin] | 73.6
62 | COc1ccc(C(C)=O)c(O[C@@H]2O[C@H](CO[C@@H]3OC[C@](O)(CO)[C@H]3O)[C@@H](O)[C@H](O)[C@H]2O)c1 [Apiopaeonoside] | -4.8
63 | CCC1=C[C@@H]2CN(C1)Cc1c([nH]c3ccccc13)[C@@](C(=O)OC)(c1cc3c(cc1OC)N(C)[C@H]1[C@@](O)(C(=O)OC)[C@H](OC(C)=O)[C@]4(CC)C=CCN5CC[C@]31[C@@H]54)C2 [VinorelbineTartrate] | -13.8
64 | O=C1C=CC[C@@H]2[C@H]3CCCN4CCC[C@@H](CN12)[C@@H]34 [Sophocarpine] | 7.33

same assay, conditions: Japanese encephalitis virus, 24 h, primary screening of 1034 compounds in the natural extracts library; red numbers = obvious cytotoxicity, blue numbers = insoluble in DMSO (colours not visible)

Row | Compound | inhibition at 50 µM [%]
65 | O[C@H]1[C@H]2c3cc4c(cc3CN3CCC(=C[C@@H]1O)[C@H]23)OCO4 [lycorine] | 92.5
66 | Oc1cc(O)c2c(c1)OC(c1ccc(O)c(O)c1)C(OC1(c3ccc(O)c(O)c3)Oc3cc(O)cc(O)c3C(O)C1O)C2 (stereo not drawn) [procyanidin] | 99.4
67 | COC1=CC23CCCN2CCc2cc4c(cc2C3C1O)OCO4 (stereo not drawn) [cephalotaxlen] | 92.2

same assay, conditions: Japanese encephalitis virus, Vero, 24 h

Row | Compound | IC50 [µM]
68 | COc1cc2c(c(OC)c1OC)-c1c(cc3c(c1OC)OCO3)CC(C)C(C)C2 (stereo not drawn) [schizandrin B] | 3.14
69 | O[C@H]1[C@H]2c3cc4c(cc3CN3CCC(=C[C@@H]1O)[C@H]23)OCO4 [lycorine] | 0.34
70 | Oc1cc(O)c2c(c1)OC(c1ccc(O)c(O)c1)C(OC1(c3ccc(O)c(O)c3)Oc3cc(O)cc(O)c3C(O)C1O)C2 (stereo not drawn) [procyanidin] | 5.43
71 | COC1=CC23CCCN2CCc2cc4c(cc2C3C1O)OCO4 (stereo not drawn) [cephalotaxlen] | 1.33
72 | COc1cc2c(c(OC)c1OC)-c1c(cc(OC)c(OC)c1OC)C[C@H](C)[C@H](C)C2 [schizandrin A] | 6.63

Structures can show the parent of a compound that is named as a salt.
